Measured values from several laboratories, pooled; numbers as filed in NIAID ChemDB.

All rows: host cell toxicity; cells: HeLa; read-out: CC50

CCn is the concentration with n% toxicity to the cells. Blank or dashed fields: not listed here. Lines come from different laboratories, so protocols vary.

structure	read by	result
COS(=O)Nc1cccc(-c2cnc3c(c2)c(O)cc(=O)n3O)c1		<100 µM
Cc1ccc(C(=O)CCCCCCOc2ccc(C3=NC(C)CO3)cc2)s1		16 µM
COc1cccc2[nH]cc(C(=O)C(=O)N3CCN(C(=O)c4ccccc4)C[C@@H]3C)c12	XTT	>300 µM
O=C(C(=O)N1CCN(C(=O)c2ccccc2)CC1)c1c[nH]c2c(-c3ncon3)ncc(F)c12	trypan blue	>100 µM
O=c1c(Cc2ccccc2)c(O)c2cc(Cc3ccccc3)cnc2n1O		0.38 µM
COc1cnc(-c2ncco2)c2[nH]cc(C(=O)C(=O)N3CCN(C(=O)c4ccccc4)CC3)c12	trypan blue	≤100 µM
CCOC(=O)[C@@]1(C)CC[C@]2(C)CC[C@]3(C)C(=CC(=O)[C@@H]4[C@@]5(C)CC/C(=N\OCc6ccc(C)cc6)C(C)(C)[C@@H]5CC[C@]43C)[C@@H]2C1	MTT	28.03 µM
c1cc(C2=NCCO2)ccc1OCCCCCN1CCCC1		165 µM
C#CCSc1n[nH]c(-c2ccc([N+](=O)[O-])c(C(F)(F)F)c2)n1	MTT	6.08 µg/mL
Cc1ccc(C(=O)CCCCOc2ccc(C(=O)NCCO)cc2)o1		>305 µM
CC1CN(C(=O)c2ccccc2)C(C)CN1C(=O)C(=O)c1c[nH]c2cccc(F)c12	XTT	102 µM
CCOC(=O)c1ccc(OCCCCC(=O)c2cc(C)n(C)c2C)cc1		56 µM
CCOC(=O)[C@@]1(C)CC[C@]2(C)CC[C@]3(C)C(=CC(=O)[C@@H]4[C@@]5(C)CC/C(=N\OCc6ccccc6C#N)C(C)(C)[C@@H]5CC[C@]43C)[C@@H]2C1	MTT	23.34 µM
CCC1CN(C(=O)C(=O)c2c[nH]c3cccc(F)c23)CCN1C(=O)c1ccccc1	XTT	188 µM
COc1cnc(-n2cnc(C)n2)c2[nH]cc(C(=O)C(=O)N3CCN(C(=O)c4ccccc4)[C@@H](C)C3)c12	trypan blue	>100 µM
Cc1cccc(-c2nc(=S)[nH][nH]2)c1	MTT	21.11 µg/mL
Cc1ccc(C(=O)CCCCOc2ccc(C3=NCC(C)O3)cc2Cl)s1		>265 µM
NNC(=O)c1ccncc1	MTT	8.5 µg/mL
O=C(Nc1ccccc1OCc1ccccn1)c1c(O)c2cccnc2n(O)c1=O		>100 µM
C[C@@H]1CN(C(=O)c2ccccc2)CCN1C(=O)C(=O)c1c[nH]c2c(-c3nccs3)ncc(F)c12	trypan blue	≤100 µM
CCOC(=O)[C@@]1(C)CC[C@]2(C)CC[C@]3(C)C(=CC(=O)[C@@H]4[C@@]5(C)CC/C(=N\OCc6cnc(Cl)s6)C(C)(C)[C@@H]5CC[C@]43C)[C@@H]2C1	MTT	15.36 µM
CCOC(=O)c1c(Nc2ccccc2)c2cccnc2n(O)c1=O		<100 µM
CC1CN(C(=O)C(=O)c2c[nH]c3cccc(F)c23)CCN1C(=O)c1ccccc1	XTT	>300 µM
COc1cnc(-n2ccnn2)c2[nH]cc(C(=O)C(=O)N3CCN(C(=O)c4ccccc4)CC3)c12	trypan blue	>100 µM
CCOC(=O)[C@@]1(C)CC[C@]2(C)CC[C@]3(C)C(=CC(=O)[C@@H]4[C@@]5(C)CC/C(=N\OCc6ccc(C(F)(F)F)cc6)C(C)(C)[C@@H]5CC[C@]43C)[C@@H]2C1	MTT	>100 µM
O=c1c(-c2cccc(Br)c2)c(O)c2cccnc2n1O		<100 µM
COc1cnc(-n2cc(C)nn2)c2[nH]cc(C(=O)C(=O)N3CCN(C(=O)c4ccccc4)CC3)c12	trypan blue	>100 µM
C[C@H]1CN(C(=O)c2ccccc2)CCN1C(=O)C(=O)c1c[nH]c2cccc(F)c12	XTT	>300 µM
CCOC(=O)c1ccc(OCCCCCc2ccc(C)s2)cc1		301 µM
Cc1ccc(C(=O)CCCCOc2ccc(C3=N[C@H](C)CO3)cc2)s1		13 µM
COc1cnc(-n2ccc(N)n2)c2[nH]cc(C(=O)C(=O)N3CCN(C(=O)c4ccccc4)CC3)c12	trypan blue	>100 µM
CCOC(=O)[C@@]1(C)CC[C@]2(C)CC[C@]3(C)C(=CC(=O)[C@@H]4[C@@]5(C)CC/C(=N\OCc6cccc(C)c6)C(C)(C)[C@@H]5CC[C@]43C)[C@@H]2C1	MTT	42.19 µM
CCOC(=O)c1ccc(OCCCCC(=O)c2ccc(C)o2)cc1		65 µM
Cc1ccc(C(=O)CCCCCCOc2ccc(C3=NCCO3)cc2)s1		>269 µM
FC(F)(F)c1ccc(-c2nc(=S)[nH][nH]2)cc1	MTT	25.92 µg/mL
CCOC(=O)c1c(NCc2ccccc2)c2cccnc2n(O)c1=O		<100 µM
Cn1cccc1C(=O)CCCCOc1ccc(C2=NCCO2)cc1		>306 µM

A second listing of 3 rows from above:

structure | read by | result
O=C(C(=O)N1CCN(C(=O)c2ccccc2)CC1)c1c[nH]c2c(-c3ncon3)ncc(F)c12 | trypan blue | >100 µM
CCOC(=O)c1ccc(OCCCCCc2ccc(C)s2)cc1 |  | 301 µM
CCOC(=O)c1ccc(OCCCCC(=O)c2cc(C)n(C)c2C)cc1 |  | 56 µM